PubChem BioAssay AID504761 | Drosophila RNAi Screening Center, 2011

- Screen: 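Genome-wide fly cell screen for genes dengue virus requires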 (primary screen)
- Cells: D.Mel-2 cells from Drosophila
- Knock-down reagent: long dsRNA against Drosophila genes
- Conditions: infection with dengue virus type 2; dose and infection time not stated
- Read-out: 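Per well on two replicate plates, imaging gave the percent of cells positive for viral envelope protein, ranked by infection, and a nuclear count of cells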
- Scale: infection score: higher = more virus-infected cells; cell count: higher = more cells in the well
- Active means: 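Low infection ranks in the two replicates (chance level up to 0.065) followed by a retest with a 1.5-fold or larger significant decrease, p below 0.05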
- Calls: active = confirmed: knock-down lowers infection; inactive = not picked or not confirmed
The deposit covers about 22,000 reagents; shown is an unselected part of those that have a named target and a result. Of all reagents, 116 (0.52%) are marked active. 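Calls depend on retest data that are not deposited; infection was ranked per plate without normalising between plates; the unit of the infection score is not given.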 The raw values are shown without normalisation. A number with no mark means an inactive call. Further read-outs or replicates are left out here. The record does not give: the amount of reagent, the time to read-out.

Against CG4462 (GeneID 42376) [DRSC15583], the entry reads infection score, replicate 1 = 1.74; cell count, replicate 1 = 6370.
Silencing of CG4462 (GeneID 42376) [DRSC25650] resulted in: infection score, replicate 1 = 4.99; cell count, replicate 1 = 7015.
Silencing of CG13326 (GeneID 36439) [DRSC06363] came out at: infection score, replicate 1 = 2.57; cell count, replicate 1 = 6696.
CG30377 (GeneID 50252) [DRSC06477] gave infection score, replicate 1 = 13.2; cell count, replicate 1 = 1528.
Against CG30377 (GeneID 50252) [DRSC25708] the deposit lists infection score, replicate 1 = 3.02; cell count, replicate 1 = 6087.
CG32264 (GeneID 38438) [DRSC08061] scored infection score, replicate 1 = 0.33; cell count, replicate 1 = 5141.
Against CG32264 (GeneID 38438) [DRSC08167] the deposit lists infection score, replicate 1 = 0.9; cell count, replicate 1 = 6028.
CG32264 (GeneID 38438) [DRSC08169] scored infection score, replicate 1 = 7.92; cell count, replicate 1 = 3548.
Against CG32264 (GeneID 38438) [DRSC08285], the values are infection score, replicate 1 = 0.39; cell count, replicate 1 = 6672.
Silencing of CG32264 (GeneID 38438) [DRSC25774] came out at: infection score, replicate 1 = 2.45; cell count, replicate 1 = 6122.
aru (GeneID 33268) [DRSC00802] showed infection score, replicate 1 = 1.22; cell count, replicate 1 = 6564.
aru (GeneID 33268) [DRSC22019] gave infection score, replicate 1 = 3.56; cell count, replicate 1 = 7266.
With knock-down of CG6287 (GeneID 34554) [DRSC02947] the results were infection score, replicate 1 = 15.5; cell count, replicate 1 = 5901.
CG6287 (GeneID 34554) [DRSC27507] gave infection score, replicate 1 = 6.87; cell count, replicate 1 = 6433.

Just “cell count, replicate 1” (2 entries from above):
aru (GeneID 33268) [DRSC22019]	7266
CG6287 (GeneID 34554) [DRSC02947]	5901
